The experiment relates to HCV genotype 1b replicon cells (Huh-luc). The experiment can be described thus: EC50 determinations in Huh-luc replicon cells (Biological Example 2). The experiment is classed as cell-based. The note with it: 3 days, Units per milliliter. As for the experimental part: Compounds were serially diluted 1:3 in 100% DMSO (Sigma). These serial dilutions were added to the cells at a 1:200 dilution to achieve a final concentration of 0.5% DMSO in a total volume of 200 μL. Plates were incubated at 37° C. for 3 days, after which culture media were removed and cells were lysed and assayed for luciferase activity using a commercial luciferase assay (Promega, Madison, Wis.). HCV replication levels in drug-treated samples were expressed as a percentage of those in untreated controls (defined as 100%), and data were fit to the logistic dose response equation y=a/(1+(x/b)^c) using XLFit4 software (IDBS, Emeryville, Calif.). EC50 values were calculated from the resulting equations as described previously.

We go through 1 substance from patent US20110306541A1, “METHODS FOR TREATING HCV” (priority 2010, published 2011).

Take IFN-α: the EC50 is on record as 0.105 ± .003 (U/mL)^b.
